The entries are a selection whose mix differs from that of the whole data set. Results filed as inconclusive are left out. Calls of active or inactive are those of the source. The call rests on the fitted dose curve; tested in HEK293 cells.

The text below walks through data of PubChem BioAssay AID720532 (National Center for Advancing Translational Sciences (NCATS), 2013).

The nature of this assay: qHTS for Inhibitors of binding or entry into cells for Marburg Virus. The following applies: Marburg virus pseudotype entry/binding inhibition, cell-based. (qHTS replaces the single test concentration by a dilution series.)
On the % scale 0 is the no-effect control and ±100 the full control effect.

For the compound `CN(C)CCS`, the activity change, negative = inhibition (at 49.2 µM (top of the series)) is inactive: 9.13%.
As to `O=[N+]([O-])[O-].[NH4+]`, where the note is “at 49.2 µM (top of the series)”, the activity change, negative = inhibition is inactive: 1.14%.
On to `O=C(O)C1(O)c2ccccc2-c2ccccc21`, for which the activity change, negative = inhibition (at 49.2 µM (top of the series)) is inactive: 24.9%.
Consider `O=C(O)C(O)(c1ccccc1)c1ccccc1`, for which the activity change, negative = inhibition (at 49.2 µM (top of the series)) was inactive: 3.59%.
Regarding `O=[N+]([O-])c1cccc([N+](=O)[O-])c1`, the activity change, negative = inhibition is inactive: 10% (at 49.2 µM (top of the series)) and inactive: 50% (at 107 µM (top of the series)).
Turning to `O=[N+]([O-])OCC(CO[N+](=O)[O-])(CO[N+](=O)[O-])CO[N+](=O)[O-]`, the activity change, negative = inhibition (at 49.2 µM (top of the series)) was inactive: -4.36%.
Regarding `CC(C)N(CCCl)C(C)C`, for the setting “at 49.2 µM (top of the series)”, the activity change, negative = inhibition is inactive: -7.51%.
Consider `C/C1=C2N=C(/C=C3N=C(/C(C)=C4\[N-][C@@](C)([C@@H]5N=C1[C@](C)(CCC(=O)NC[C@@H](C)OP(=O)([O-])O[C@H]1[C@@H](O)[C@@H](n6cnc7cc(C)c(C)cc76)O[C@@H]1CO)[C@H]5CC(N)=O)[C@@](C)(CC(N)=O)[C@@H]4CCC(N)=O)[C@@](C)(CC(N)=O)[C@@H]\3CCC(N)=O)C(C)(C)[C@@H]/2CCC(N)=O.[C-]#N.[Co+3]`, for which, under “at 17.8 µM (top of the series)”, the activity change, negative = inhibition was inactive: -15.4%.
For `CCN(CCCl)Cc1ccccc1C`, where the note is “at 49.2 µM (top of the series)”, the activity change, negative = inhibition is inactive: 4.84%.
Turning to `CCOP(=O)(CC)Oc1ccc([N+](=O)[O-])cc1` (stereo not given), where the note is “at 49.2 µM (top of the series)”, the activity change, negative = inhibition was inactive: 18.4%.
`Cc1cccc([N+](=O)[O-])c1[N+](=O)[O-]`: the activity change, negative = inhibition (at 107 µM (top of the series)) was inactive: 46.8%.
Take `CP1(=O)OC(CCl)CC(CCl)O1` (stereo not given): where the note is “at 49.2 µM (top of the series)”, the activity change, negative = inhibition was inactive: 76.6%.
On to `OCCSCCO`, for which the activity change, negative = inhibition (at 49.2 µM (top of the series)) was inactive: -8.05%.
Still for that read-out and setting: the same measure for `CC(C)OP(=O)(F)OC(C)C`: inactive: 19.8%.
